The target in data set [1] is α6/α3β2β3 nAChR (Homo sapiens, UniProt P17787+P32297+Q15825). Description: Two-electrode voltage-clamp in X. laevis oocytes, α6/α3β2β3 nAChR. To be noted: inhibition <50% at 10 μM. Background: Two-electrode voltage clamp holds a large cell at a set potential and records current.
The target in data set [2] is Muscle type nAChR (α1β1δε) (Homo sapiens, UniProt P02708+Q04844+Q07001). Description: Two-electrode voltage-clamp in X. laevis oocytes, muscle type nAChR. The following applies: inhibition <50% at 10 μM.
The test system of data set [3] is oxaliplatin-induced cold allodynia. In words: Oxaliplatin-induced cold allodynia, cold plate test, daily analogue 6. To be noted: 80 μg/kg s.c. daily with oxaliplatin 3.5 mg/kg i.p., mice.
Data set [4] concerns α2β4 nAChR. In words: Two-electrode voltage-clamp in X. laevis oocytes, α2β4 nAChR. To be noted: α2β4, human; inhibition <50% at 10 μM.
Data set [5] deals with α4β4 nAChR (Homo sapiens, UniProt P30926+P43681). Description: Two-electrode voltage-clamp in X. laevis oocytes, α4β4 nAChR. To be noted: inhibition <50% at 10 μM.
Data set [6] addresses α6/α3β4 nAChR (Homo sapiens, UniProt P30926+P32297+Q15825). Description: Two-electrode voltage-clamp in X. laevis oocytes, α6/α3β4 nAChR. To be noted: inhibition <50% at 10 μM.
A short description of data set [7]: In vitro human serum stability test (Example 1-C). The following applies: 0.1 mg/mL, 37° C.
In data set [8] the target is α3β4 nAChR (Homo sapiens, UniProt P30926+P32297). In words: Two-electrode voltage-clamp in X. laevis oocytes, α3β4 nAChR. The following applies: inhibition <50% at 10 μM.
Data set [9] deals with β4β4 nAChR. Description: Two-electrode voltage-clamp in X. laevis oocytes, subtype printed β4β4. To be noted: β4β4 as printed, human; inhibition <50% at 10 μM.
For data set [10], the target named is human α9α10 nAChR (Homo sapiens, UniProt Q9GZZ6+Q9UGM1). In words: Two-electrode voltage-clamp, block of ACh-induced current in X. laevis oocytes expressing human α9α10 nAChR. It counts as cell-based. The following applies: Table 1B-2.
Data set [11] deals with other human nAChR subtypes. Description: Two-electrode voltage-clamp selectivity test on other human nAChR subtypes. The following applies: read-out: potency on other human nAChR subtypes; all subtypes except for α7.
The target in data set [12] is GABAB1b receptors (Homo sapiens, UniProt Q9UBS5). In words: Functional study at GABAB1b receptors (agonist and antagonist effect). To be noted: concentration-response.
Data set [13] relates to CYP enzyme isoforms. In words: CYP enzyme isoform inhibition assays. The following applies: 10 μM.
Data set [14] relates to enzyme and uptake assays including acetylcholinesterase and MAO. Description: Enzyme and uptake assays.
The subject of data set [15] is oxaliplatin-induced cold allodynia. In words: Chronic oxaliplatin-induced neuropathic pain, cold plate test, RgIA-5524. The following applies: 40 μg/kg with oxaliplatin i.p. 3.5 mg/kg 5 days each week, day 21.
For data set [16] the test system is unchanged. In words: Single-injection oxaliplatin cold allodynia, cold plate test, α9 KO mice. The following applies: single oxaliplatin 5.0 or 10.0 mg/kg, RgIA-5524 40 ug/kg s.c., day 5.
Data set [17] can be described thus: Human serum stability assay (Example 2-F). The following applies: 90% human serum, 37° C., HPLC traces.
The test system of data set [18] is N-type Ca2+ channel. In words: Competition binding on N-type Ca2+ channel.
The test system of data set [19] is oxaliplatin-induced cold allodynia. In words: Single-injection oxaliplatin cold allodynia, cold plate test, wild-type mice. To be noted: single oxaliplatin 5.0 or 10.0 mg/kg, RgIA-5524 40 ug/kg s.c., day 5.
The subject of data set [20] is pain-associated receptors and ion channels (opioid receptors, NMDAR, BZD, OCT receptors, voltage-gated ion channels). In words: Competition binding screen on pain-related receptors and ion channels. To be noted: 10 μM.

By UniProt entry, the sequences of proteins in these tests, tags left out. Residues count along the entry.
UniProt P17787, whole entry, looked up: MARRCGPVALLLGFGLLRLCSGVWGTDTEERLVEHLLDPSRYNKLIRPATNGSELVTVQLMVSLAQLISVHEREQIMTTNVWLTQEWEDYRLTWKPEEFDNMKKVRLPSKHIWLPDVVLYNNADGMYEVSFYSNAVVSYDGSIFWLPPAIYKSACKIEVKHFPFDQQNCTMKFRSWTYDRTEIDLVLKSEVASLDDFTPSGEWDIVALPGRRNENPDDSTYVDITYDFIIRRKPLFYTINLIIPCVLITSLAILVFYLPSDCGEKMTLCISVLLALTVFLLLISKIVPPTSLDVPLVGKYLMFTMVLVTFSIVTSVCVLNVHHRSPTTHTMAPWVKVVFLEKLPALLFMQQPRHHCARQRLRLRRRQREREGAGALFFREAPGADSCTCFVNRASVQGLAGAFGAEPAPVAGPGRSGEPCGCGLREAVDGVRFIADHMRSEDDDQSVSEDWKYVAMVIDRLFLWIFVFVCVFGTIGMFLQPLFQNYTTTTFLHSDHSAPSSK
UniProt P32297, whole entry, looked up: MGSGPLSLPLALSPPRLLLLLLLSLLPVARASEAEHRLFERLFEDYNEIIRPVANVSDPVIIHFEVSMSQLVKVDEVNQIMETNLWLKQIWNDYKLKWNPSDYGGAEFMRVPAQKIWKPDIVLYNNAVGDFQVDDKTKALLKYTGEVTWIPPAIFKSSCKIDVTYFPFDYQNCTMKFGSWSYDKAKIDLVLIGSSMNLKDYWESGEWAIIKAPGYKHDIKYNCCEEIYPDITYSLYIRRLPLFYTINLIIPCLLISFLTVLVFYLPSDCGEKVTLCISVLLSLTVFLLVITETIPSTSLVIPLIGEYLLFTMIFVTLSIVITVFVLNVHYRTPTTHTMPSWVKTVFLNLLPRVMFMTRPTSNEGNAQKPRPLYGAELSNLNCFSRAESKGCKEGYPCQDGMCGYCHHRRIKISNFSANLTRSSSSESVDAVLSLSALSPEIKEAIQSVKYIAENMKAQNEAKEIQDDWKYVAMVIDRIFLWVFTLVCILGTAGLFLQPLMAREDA
UniProt P32297, 32-505 limits assumed: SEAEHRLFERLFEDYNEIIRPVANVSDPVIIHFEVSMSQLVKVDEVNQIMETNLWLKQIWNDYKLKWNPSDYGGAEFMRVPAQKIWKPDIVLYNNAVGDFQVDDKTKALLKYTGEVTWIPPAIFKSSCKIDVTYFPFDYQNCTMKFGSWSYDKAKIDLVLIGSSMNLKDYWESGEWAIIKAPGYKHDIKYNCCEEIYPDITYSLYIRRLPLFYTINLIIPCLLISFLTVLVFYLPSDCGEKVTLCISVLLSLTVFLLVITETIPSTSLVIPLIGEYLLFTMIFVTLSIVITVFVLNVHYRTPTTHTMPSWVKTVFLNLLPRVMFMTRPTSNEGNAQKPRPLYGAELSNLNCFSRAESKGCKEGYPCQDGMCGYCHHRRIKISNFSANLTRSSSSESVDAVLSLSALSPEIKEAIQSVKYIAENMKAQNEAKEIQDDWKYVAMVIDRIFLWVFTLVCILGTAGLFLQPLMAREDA
UniProt Q15825, whole entry M241L/F253L/V300I/V303I/V320I/I327V/R339S/K347N, looked up: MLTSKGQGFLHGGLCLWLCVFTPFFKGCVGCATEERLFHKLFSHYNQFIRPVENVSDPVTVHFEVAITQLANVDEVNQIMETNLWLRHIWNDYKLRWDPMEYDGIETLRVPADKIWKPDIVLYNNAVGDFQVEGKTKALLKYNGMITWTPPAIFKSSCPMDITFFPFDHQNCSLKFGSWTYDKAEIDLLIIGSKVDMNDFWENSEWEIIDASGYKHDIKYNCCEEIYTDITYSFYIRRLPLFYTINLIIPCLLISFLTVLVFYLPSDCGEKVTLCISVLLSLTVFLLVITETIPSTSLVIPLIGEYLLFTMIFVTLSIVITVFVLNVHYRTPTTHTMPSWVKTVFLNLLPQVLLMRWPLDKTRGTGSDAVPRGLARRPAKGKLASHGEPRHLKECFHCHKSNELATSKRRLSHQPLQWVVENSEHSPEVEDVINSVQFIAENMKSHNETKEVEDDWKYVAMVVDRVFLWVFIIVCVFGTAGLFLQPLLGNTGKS
UniProt P30926, 22-498 limits assumed: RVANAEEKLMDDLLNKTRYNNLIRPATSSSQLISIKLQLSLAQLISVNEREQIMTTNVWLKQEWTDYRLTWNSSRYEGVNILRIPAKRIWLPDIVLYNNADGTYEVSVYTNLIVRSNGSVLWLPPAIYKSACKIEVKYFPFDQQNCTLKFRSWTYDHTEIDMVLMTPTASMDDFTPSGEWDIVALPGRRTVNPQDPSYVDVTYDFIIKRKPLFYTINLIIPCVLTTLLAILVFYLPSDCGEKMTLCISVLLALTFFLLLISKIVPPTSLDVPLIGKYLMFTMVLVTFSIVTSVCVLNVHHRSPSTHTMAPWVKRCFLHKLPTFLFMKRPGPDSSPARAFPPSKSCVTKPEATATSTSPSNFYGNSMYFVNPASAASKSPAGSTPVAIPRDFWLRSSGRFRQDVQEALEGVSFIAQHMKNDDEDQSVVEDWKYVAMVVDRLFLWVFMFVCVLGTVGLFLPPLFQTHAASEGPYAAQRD
UniProt P30926, whole entry, looked up: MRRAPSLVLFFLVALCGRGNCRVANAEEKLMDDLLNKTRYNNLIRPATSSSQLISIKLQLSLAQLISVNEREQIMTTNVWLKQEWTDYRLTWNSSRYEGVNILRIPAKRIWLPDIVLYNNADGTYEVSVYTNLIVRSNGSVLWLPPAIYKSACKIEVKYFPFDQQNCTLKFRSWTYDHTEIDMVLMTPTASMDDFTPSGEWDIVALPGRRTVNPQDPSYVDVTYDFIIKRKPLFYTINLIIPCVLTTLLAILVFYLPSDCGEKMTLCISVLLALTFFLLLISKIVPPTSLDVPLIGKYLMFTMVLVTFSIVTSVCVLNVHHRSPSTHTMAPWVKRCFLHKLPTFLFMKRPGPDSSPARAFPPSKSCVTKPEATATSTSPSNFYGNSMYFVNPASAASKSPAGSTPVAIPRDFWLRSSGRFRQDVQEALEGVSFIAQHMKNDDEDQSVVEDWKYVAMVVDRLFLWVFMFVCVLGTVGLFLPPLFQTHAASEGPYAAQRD
UniProt P43681, 27-627 limits assumed: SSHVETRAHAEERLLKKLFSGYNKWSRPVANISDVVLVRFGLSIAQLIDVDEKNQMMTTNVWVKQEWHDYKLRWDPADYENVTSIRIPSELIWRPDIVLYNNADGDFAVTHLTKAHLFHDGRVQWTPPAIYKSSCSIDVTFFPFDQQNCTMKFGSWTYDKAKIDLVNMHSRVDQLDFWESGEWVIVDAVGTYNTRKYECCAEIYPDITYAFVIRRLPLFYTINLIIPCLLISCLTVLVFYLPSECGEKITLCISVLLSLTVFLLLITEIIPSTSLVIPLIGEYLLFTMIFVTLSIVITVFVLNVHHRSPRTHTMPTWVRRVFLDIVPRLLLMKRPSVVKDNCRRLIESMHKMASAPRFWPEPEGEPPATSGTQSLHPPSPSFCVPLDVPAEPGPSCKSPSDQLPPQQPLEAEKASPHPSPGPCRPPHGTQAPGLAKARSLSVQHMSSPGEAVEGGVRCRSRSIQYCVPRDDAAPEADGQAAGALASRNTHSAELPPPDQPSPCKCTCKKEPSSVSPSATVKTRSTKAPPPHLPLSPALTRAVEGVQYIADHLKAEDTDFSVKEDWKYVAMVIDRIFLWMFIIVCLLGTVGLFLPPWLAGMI
UniProt Q9GZZ6, 25-450 limits assumed: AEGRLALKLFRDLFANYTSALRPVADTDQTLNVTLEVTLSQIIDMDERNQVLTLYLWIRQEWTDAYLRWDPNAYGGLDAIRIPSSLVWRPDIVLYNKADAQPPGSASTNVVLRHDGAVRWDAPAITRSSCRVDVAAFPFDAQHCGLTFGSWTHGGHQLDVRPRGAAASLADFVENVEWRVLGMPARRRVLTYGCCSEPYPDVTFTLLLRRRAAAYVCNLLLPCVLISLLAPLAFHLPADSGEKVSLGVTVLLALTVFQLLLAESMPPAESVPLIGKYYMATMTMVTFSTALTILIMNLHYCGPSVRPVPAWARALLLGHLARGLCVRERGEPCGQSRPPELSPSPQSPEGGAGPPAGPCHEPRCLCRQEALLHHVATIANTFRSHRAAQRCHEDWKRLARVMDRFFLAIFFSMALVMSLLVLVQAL
UniProt Q9UGM1, 23-479 limits assumed: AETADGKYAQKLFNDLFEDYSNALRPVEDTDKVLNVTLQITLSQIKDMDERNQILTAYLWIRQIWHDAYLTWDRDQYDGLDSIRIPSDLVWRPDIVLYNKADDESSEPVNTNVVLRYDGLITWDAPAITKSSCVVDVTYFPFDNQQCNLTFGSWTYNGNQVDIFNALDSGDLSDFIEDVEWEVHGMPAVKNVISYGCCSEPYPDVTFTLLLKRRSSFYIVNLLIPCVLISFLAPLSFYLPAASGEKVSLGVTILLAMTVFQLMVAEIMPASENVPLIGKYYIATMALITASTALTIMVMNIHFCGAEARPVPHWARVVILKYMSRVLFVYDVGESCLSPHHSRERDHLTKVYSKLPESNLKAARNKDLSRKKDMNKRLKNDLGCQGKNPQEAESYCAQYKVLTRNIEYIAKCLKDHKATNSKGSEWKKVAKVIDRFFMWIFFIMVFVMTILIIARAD
UniProt Q9UBS5, 1-844 isoform 2: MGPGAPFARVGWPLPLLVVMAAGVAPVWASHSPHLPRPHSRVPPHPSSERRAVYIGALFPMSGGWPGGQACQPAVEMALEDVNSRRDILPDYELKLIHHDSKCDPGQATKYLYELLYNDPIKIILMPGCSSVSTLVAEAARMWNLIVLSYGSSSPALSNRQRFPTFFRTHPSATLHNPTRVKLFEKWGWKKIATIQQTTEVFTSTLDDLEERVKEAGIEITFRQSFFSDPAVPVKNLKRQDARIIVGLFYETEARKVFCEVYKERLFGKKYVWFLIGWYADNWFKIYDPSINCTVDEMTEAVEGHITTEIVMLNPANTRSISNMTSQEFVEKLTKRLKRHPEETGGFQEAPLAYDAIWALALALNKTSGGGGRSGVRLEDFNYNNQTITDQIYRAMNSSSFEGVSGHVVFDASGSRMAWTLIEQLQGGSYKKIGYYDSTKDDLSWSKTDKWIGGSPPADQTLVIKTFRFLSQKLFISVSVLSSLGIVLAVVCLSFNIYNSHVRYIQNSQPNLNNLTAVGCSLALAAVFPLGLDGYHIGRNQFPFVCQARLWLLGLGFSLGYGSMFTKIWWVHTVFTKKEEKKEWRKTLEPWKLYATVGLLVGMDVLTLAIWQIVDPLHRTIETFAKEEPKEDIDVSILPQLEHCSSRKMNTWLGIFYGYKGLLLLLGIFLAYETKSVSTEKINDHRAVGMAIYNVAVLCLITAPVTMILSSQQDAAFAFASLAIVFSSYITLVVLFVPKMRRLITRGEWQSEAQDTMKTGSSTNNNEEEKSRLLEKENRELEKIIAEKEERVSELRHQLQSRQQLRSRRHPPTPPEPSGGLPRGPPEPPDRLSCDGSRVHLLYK
UniProt O75899, 42-941 partner limits assumed: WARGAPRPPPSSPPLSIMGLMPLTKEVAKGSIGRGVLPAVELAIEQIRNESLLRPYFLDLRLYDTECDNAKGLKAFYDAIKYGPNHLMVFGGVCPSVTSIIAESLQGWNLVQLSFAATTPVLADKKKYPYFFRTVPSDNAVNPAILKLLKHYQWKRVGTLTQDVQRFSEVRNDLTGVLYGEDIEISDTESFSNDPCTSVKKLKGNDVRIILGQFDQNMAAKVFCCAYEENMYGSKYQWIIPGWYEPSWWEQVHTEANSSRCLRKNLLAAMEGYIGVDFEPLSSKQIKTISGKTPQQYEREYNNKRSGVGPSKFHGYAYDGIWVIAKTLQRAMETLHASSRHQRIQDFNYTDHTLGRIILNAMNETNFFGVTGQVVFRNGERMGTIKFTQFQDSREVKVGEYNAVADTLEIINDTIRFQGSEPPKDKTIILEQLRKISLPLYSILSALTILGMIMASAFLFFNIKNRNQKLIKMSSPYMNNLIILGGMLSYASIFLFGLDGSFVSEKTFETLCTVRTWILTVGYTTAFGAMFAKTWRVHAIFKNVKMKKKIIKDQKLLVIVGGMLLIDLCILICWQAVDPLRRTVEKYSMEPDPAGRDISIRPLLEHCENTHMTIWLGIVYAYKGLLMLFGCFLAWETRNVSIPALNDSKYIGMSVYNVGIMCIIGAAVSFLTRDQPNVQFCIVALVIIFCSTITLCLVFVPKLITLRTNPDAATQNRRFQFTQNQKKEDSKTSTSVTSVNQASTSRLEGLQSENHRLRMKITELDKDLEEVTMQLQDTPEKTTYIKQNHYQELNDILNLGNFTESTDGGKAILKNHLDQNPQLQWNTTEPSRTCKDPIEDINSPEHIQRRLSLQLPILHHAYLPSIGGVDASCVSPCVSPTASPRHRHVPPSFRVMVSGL

This is a selection: effects in other tests are not listed, and their absence says nothing.

From patent publication US20230391838A1 (priority 2020, published 2023) come the findings set out here.

In the case of `C[C@@H](O)[C@@H]1NC(=O)[C@@H]2CSSC[C@@H]3NC(=O)[C@H](CCC(N)=O)NC(=O)[C@H](Cc4ccc(O)c(I)c4)NC(=O)[C@H](CCCNC(=N)N)NC(=O)[C@H](CSSC[C@H](NC(=O)CNC(=O)[C@@H](N)CCC(=O)NCCCC[C@@H](C(=O)O)NC(=O)[C@H](Cc4ccc(O)cc4)NC3=O)C(=O)N2)NC(=O)[C@H](CCCNC(=N)N)NC(=O)[C@@H]2CCCN2C(=O)[C@H](CC(=O)O)NC1=O`, the IC50 in data set [1], in data set [2], in [4], in data set [5], in [6] and in data set [8] was above 10 µM in each case. The IC50 is above 10 µM in data set [9], 0.0034 µM in data set [10] and above 10 µM in data set [11]. The “effect on cold allodynia, cold plate latency” value in data set [3] was “significantly prevented the cold allodynia”. In addition, in data set [7], the “fraction scrambled into [1,4] isomer in human serum” value was “less than 10%”. Further, the “stability in human serum (in words)” value in data set [7] was “dramatically increased stability over α-RgIA4”.
For `C[C@@H](O)[C@@H]1NC(=O)[C@@H]2CSCSC[C@@H](C(=O)N[C@H](CC(=O)N[C@@H](CCCNC(=N)N)C(=O)O)Cc3ccc(O)cc3)NC(=O)[C@H](CCC(N)=O)NC(=O)[C@H](Cc3ccc(O)c(I)c3)NC(=O)[C@H](CCCNC(=N)N)NC(=O)[C@H](CSSC[C@H](NC(=O)CN)C(=O)N2)NC(=O)[C@H](CCCNC(=N)N)NC(=O)[C@@H]2CCCN2C(=O)[C@H](CC(=O)O)NC1=O` [RgIA-5524, G C^I C^II T D P R C^III R (iY) Q C^IV (bhY) R], the “agonist or antagonist effects at GABAB1b receptors” value in [12] was “failed to display any concentration-dependent agonist or antagonist effects”. Besides, in data set [13], the “inhibition of CYP enzyme isoforms” value was “no inhibition was observed”. Besides, in data set [14], the “activity in enzyme and uptake assays” value was “inactive”. Further, in [15], the “development of cold allodynia, paw withdrawal latency on cold plate” value is on record as “did not develop allodynia”. The “effect on acute cold allodynia, Ox/RgIA-5524 vs Ox/Sal” value in data set [16] was “no significance was observed”. The “disulfide scrambling in human serum (in words)” value in [17] is given as “Complete disulfide scrambling prevention was observed”. Moreover, the “inhibition on N-type Ca2+ channel” value in data set [18] (10 μM) was found to be 58.4%. The “affinity on N-type Ca2+ channel (in words)” value in data set [18] (concentration-response analysis) is listed as “micromolar affinity”. Moreover, the “effect on acute cold allodynia” value in [19] is “effective in reversing the acute cold allodynia”. For the same compound, the “inhibition on pain-associated receptors and ion channels” value in data set [20] is below 50%.
